Results of unrelated studies side by side (data: NIAID ChemDB).

All rows: growth or infection tests; organism: Coxsackie virus

ECn: concentration that inhibits the pathogen or its effect by n%. Two numbers with a dash give a range or band. Rows are shuffled and stem from different studies. An empty or dashed field is not shown.

SMILES	method	cells	read-out	strain	result
Cc1cn(Cc2cc([C@H](C)NC(=O)OC(C)(C)C)no2)c(=O)n(Cc2ccccc2)c1=O	-	-	EC50	TYPE B3	10.6 µM
Nc1ncnc2c1ncn2[C@@H]1O[C@H](C=NO)[C@@H](O)[C@H]1O	cytopathic effect	VERO	EC50	Strain B4	>0.4 µg/mL
NC1CSCCN2CCc3c([nH]c4ccccc34)[C@H]12	cytopathic effect	VERO	EC50	TYPE B4	2 µg/mL
Cc1cc(-c2noc(C(F)(F)F)n2)cc(C)c1OCCCc1cccnn1	cytopathic effect	HeLa	EC50	-	0.033–0.659 µg/mL
COc1cc(Cc2cnc(-n3c(C)nc4ccc(Br)cc4c3=O)nc2N)cc(OC)c1OC	cytopathic effect	HeLa	EC50	TYPE B4	>80 µg/mL
CCON=C[C@H]1O[C@@H](n2cnc3c(N)ncnc32)[C@H](O)[C@@H]1O	cytopathic effect	VERO	EC50	Strain B4	>100 µg/mL
Nc1nc2c(ncn2CCCC(O)CF)c(=O)[nH]1	cytopathic effect	HeLa	EC50	TYPE B4	>400 µg/mL
CCc1nc(-n2c(C)nc3ccc(Br)cc3c2=O)nc(N)c1-c1ccc(Cl)cc1	cytopathic effect	HeLa	EC50	TYPE B4	>16 µg/mL
CS(=O)(=O)c1ccc(Oc2ccc(Cl)c(Cl)c2)c([N+](=O)[O-])c1	cytopathic effect	HeLa	EC50	TYPE A21	267 µM
Nc1ncnc2c1ncn2[C@@H]1O[C@H](C(O)O)[C@@H](O)[C@@H]1O	cytopathic effect	VERO	EC50	Strain B4	>200 µg/mL
CS(=O)(=O)c1ccc(NCCc2ccc(Cl)c(Cl)c2)nc1	cytopathic effect	HeLa	EC50	TYPE A21	5 µg/mL
COc1cc2c(cc1OC)[C@@H]1C(N)CSCON1CC2	cytopathic effect	HeLa	EC50	TYPE B4	4 µg/mL
Nc1ncnc2c1ccn2[C@@H]1C[C@H](O)[C@@H](O)[C@H]1O	-	HeLa	EC50	B4	400 µg/mL
Cc1nc(CC(O)CO)c2nc[nH]c(=O)n12	cytopathic effect	HeLa	EC50	TYPE B4	>400 µg/mL
CN(C)c1ccc(Cc2ccc(S(C)(=O)=O)cn2)cc1	cytopathic effect	HeLa	EC50	TYPE A21	>10 µg/mL
COc1ccc(OCc2ccc(COc3c(Cl)cccc3Cl)cc2)c(Cl)c1	cytopathic effect	HeLa	EC50	GROUP A9	0.09 µg/mL
CCCc1ccc(CCCOc2c(C)cc(-c3nnn(C)n3)cc2C)o1	cytopathic effect	HeLa	EC50	-	0.033–0.659 µg/mL
Nc1nc2c(ccn2[C@H]2CO[C@@H](CO)C2)c(=O)[nH]1	cytopathic effect	HeLa	EC50	TYPE B4	>400 µg/mL
COc1ccc(-c2c(C)c(=O)c3cc(OCC(C)C)c(C)cc3n2C)cc1C	cytopathic effect	HeLa S3	EC50	TYPE A7	>4 µg/mL
Cc1nc(C(C)C)c2[nH]c(=S)[nH]c(=O)n12	cytopathic effect	HeLa	EC50	TYPE B4	300 µg/mL
CCS(=O)(=O)c1ccc(NCc2ccc(Cl)cc2)nc1C#N	cytopathic effect	HeLa	EC50	TYPE A21	1.6 µg/mL
Nc1nccc2nnn([C@@H]3O[C@H](CO)[C@@H](O)[C@H]3O)c12	plaque count	VERO	EC50	B1	>398 µM
Nc1ncnc2c1ncn2[C@H]1C[C@@H](CO)[C@H](O)[C@@H]1O	cytopathic effect	VERO	EC50	TYPE B4	>400 µg/mL
C=C(N=CC)c1nc(-c2cccc(OC)c2)n(C2O[C@H](CO)[C@@H](O)[C@H](O)[C@H]2O)n1	cytopathic effect	VERO	EC50	TYPE B4	>200 µg/mL
CC1(C)[C@@H](CO)CC[C@@]1(C)Cn1cnc2c(=O)[nH]cnc21	cytopathic effect	VERO	EC50	TYPE B4	>400 µg/mL
Nc1nccc2c1nnn2[C@H]1CC[C@@H](CO)O1	plaque count	VERO	EC50	B1	>387 µM
COc1ccc(OCCCCCCn2ccnc2)c(Cl)c1	plaque count	HeLa	EC50	Type B3/Woodruff	21.8 µM
CS(=O)(=O)c1ccc(NCc2ccc(Br)cc2)nc1	cytopathic effect	HeLa	EC50	TYPE A21	1.6 µg/mL
CCOc1ccc(-c2cc(N(CC)CC)no2)c(O)c1	cytopathic effect	VERO	EC50	ATCC VR28 (TYPE B1)	>362 µM
C=CCc1ncn2c(=O)[nH]c(NC(C)=O)nc12	cytopathic effect	HeLa	EC50	TYPE B4	>400 µg/mL
Nc1ncnc2c1ncn2[C@@H]1O[C@H](C=NOCc2ccccc2)[C@@H](O)[C@H]1O	cytopathic effect	HeLa	EC50	B4	>200 µg/mL
Cc1ccccc1NC(=O)c1cccc2[nH]c(-c3ccncc3)nc12	-	VERO	EC50	TYPE B3	2.23 µg/mL
Nc1ncnc2c1ncn2C[C@H](O)CO	cytopathic effect	VERO	EC50	TYPE B4	>200 µg/mL
Nc1nccc2c1ncn2[C@@H]1C[C@H](CO)[C@@H](O)[C@H]1O	cytopathic effect	VERO	EC50	TYPE B4	2 µg/mL
Nc1ncnc2c1ncn2C1CC(CO)[C@@H](O)[C@H]1O	cytopathic effect	VERO	EC50	TYPE B4	2 µg/mL
Nc1ncnc2c1ncn2[C@@H]1O[C@H](/C=N/O)C[C@H]1O	cytopathic effect	VERO	EC50	Strain B4	>400 µg/mL
CC1(C)[C@@H](CO)CC[C@@]1(C)Cn1ccc(=O)[nH]c1=O	cytopathic effect	VERO	EC50	TYPE B4	>400 µg/mL
OC[C@H]1O[C@@H](c2cncc(Br)c2)[C@@H](O)[C@H]1O	cytopathic effect	HeLa	EC50	TYPE B4	≥100 µg/mL
Nc1ncnc2c1ncn2[C@@H]1O[C@H](C=O)[C@@H](O)[C@H]1O	cytopathic effect	VERO	EC50	Strain B4	>200 µg/mL
Nc1nc2c(ccn2[C@@H]2C[C@H](CO)[C@H](O)[C@@H]2O)c(=O)[nH]1	-	-	MIC	A21	>100 µg/mL
Cc1ccc(-n2c(-c3ccccc3)c(C)c(=O)c3cc(C(C)C)ccc32)cc1	cytopathic effect	HeLa S3	EC50	TYPE A7	>2.5 µg/mL
OC[C@H]1O[C@@H](n2nnc3c(Cl)nccc32)[C@H](O)[C@@H]1O	plaque count	VERO	EC50	B1	>370 µM
NC(=O)c1cncc([C@H]2O[C@H](CO)[C@H](O)[C@@H]2O)c1	cytopathic effect	VERO	EC50	TYPE B4	≥100 µg/mL
CC1(C)[C@@H](CO)CC[C@@]1(C)Cn1cnc2c(N)ncnc21	cytopathic effect	HeLa	EC50	TYPE B4	>400 µg/mL
CC=NC(=N)c1nc(-c2cccc(OC)c2)n(Cc2ccccc2)n1	cytopathic effect	HeLa	EC50	TYPE B4	>10 µg/mL
COc1ccc(C/C=C/Oc2cc(C)c(-c3noc(C(F)F)n3)c(C)c2)nn1	cytopathic effect	HeLa	EC50	-	0.033–0.659 µg/mL
Cc1ccccc1C(c1ccccc1)N1CCN(c2ncnc3c2cnn3-c2ccccc2)CC1	plaque count	RD	EC50	TYPE 3	0.13 µM
Nc1ncnc2c1ncn2C[C@H](O)CO	cytopathic effect	VERO	EC50	TYPE B4	100 µg/mL
Nc1ncnc2c1ncn2[C@@H]1C=C(CO)[C@@H](O)[C@H]1O	cytopathic effect	HeLa	EC50	TYPE B4	≥40 µg/mL
Nc1nc(Cl)c2ncn([C@H]3CO[C@@H](CO)C3)c2n1	cytopathic effect	VERO	EC50	TYPE B4	>400 µg/mL
NC(=S)c1cncc([C@H]2O[C@H](CO)[C@@H](O)[C@@H]2O)c1	cytopathic effect	VERO	EC50	TYPE B4	≥100 µg/mL
C=C(N=CC)c1nc(-c2ccc(OC)cc2)n(C2O[C@H](CO)[C@@H](O)[C@H](O)[C@H]2O)n1	cytopathic effect	HeLa	EC50	TYPE B4	>200 µg/mL
CCS(=O)(=O)c1ccc(Cc2ccc(Cl)c(Cl)c2)nc1C(N)=O	cytopathic effect	HeLa	EC50	TYPE A21	5 µg/mL
CSc1nsc(-c2ccc(OC(C)(C)C)cc2)c1C#N	plaque count	HEP-2	EC50	TYPE B1	10 µM
Nc1ncnc2c1nnn2[C@H]1C[C@H](O)[C@@H](CO)O1	plaque count	VERO	EC50	B1	>396 µM
Nc1ncnc2c1ncn2[C@@H]1C=C(CO)[C@@H](O)[C@@H]1O	cytopathic effect	VERO	EC50	TYPE B4	100 µg/mL
CCN(CC)c1cc(-c2ccc(O)cc2O)on1	cytopathic effect	VERO	EC50	ATCC VR28 (TYPE B1)	12 µM
Nc1ncnc2c1ncn2[C@@H]1C=C(CO)[C@@H](O)C1	cytopathic effect	HeLa	EC50	TYPE B4	>400 µg/mL
CC(C)c1ccc2c(c1)c(=O)cc(-c1cccs1)n2C	cytopathic effect	HeLa S3	EC50	TYPE A7	1.9 µg/mL
OC[C@H]1O[C@@H](c2cc(Cl)c(F)cc2F)C[C@@H]1O	cytopathic effect	VERO	EC50	TYPE B4	>80 µg/mL
CC(=O)Nc1nc2c(CC(O)CO)ncn2c(=O)[nH]1	cytopathic effect	HeLa	EC50	TYPE B4	>200 µg/mL
CCc1ccc(CCCOc2cc(C)c(-c3noc(C(F)F)n3)c(C)c2)nn1	cytopathic effect	HeLa	EC50	-	0.033–0.659 µg/mL
CS(=O)(=O)c1ccc(Cc2ccc(Cl)cc2)nc1	cytopathic effect	HeLa	EC50	TYPE A21	2.5 µg/mL
COC1=C2C[C@@H](C)C[C@@H](OC)[C@@H](O)[C@H](C)/C=C(\C)[C@@H](OC(N)=O)[C@H](OC)/C=C\C=C(/C)C(=O)NC(=CC1=O)C2=O	-	VERO	EC50	3M (TYPE B3)	3.35 µM
COc1cc(Cc2cnc(-n3c(-c4ccccc4)nc4ccc(Br)cc4c3=O)nc2N)cc(OC)c1OC	cytopathic effect	HeLa	EC50	TYPE B4	>16 µg/mL
CSc1nsc(-c2ccc(OCc3ccccc3)cc2)c1C#N	plaque count	HEP-2	EC50	TYPE B1	10 µM
OC[C@H]1O[C@@H](n2nnc3ccnc(Cl)c32)[C@H](O)[C@@H]1O	plaque count	VERO	EC50	B1	>370 µM
CC=NC(=N)c1nc(-c2cccc(C)c2)n(Cc2ccccc2)n1	cytopathic effect	VERO	EC50	TYPE B4	>10 µg/mL
C#CCOc1cc(OC)ccc1-c1cc(N(CC)CC)no1	cytopathic effect	VERO	EC50	ATCC VR28 (TYPE B1)	20 µM
CSc1nsc(-c2ccccc2)c1C#N	plaque count	HEP-2	EC50	TYPE B1	>20 µM
N#Cc1cncc([C@@H]2O[C@H](CO)[C@H](O)[C@@H]2O)c1	cytopathic effect	VERO	EC50	TYPE B4	≥100 µg/mL
CCCc1nc(-c2c(C)cc(OCCCc3ccc(CO)nn3)cc2C)no1	cytopathic effect	HeLa	EC50	-	0.033–0.659 µg/mL
Nc1ccn(CCCC(O)CF)c(=O)n1	cytopathic effect	HeLa	EC50	TYPE B4	>400 µg/mL
Cc1ccc(CCCCCOc2ccc(-c3noc(C(F)F)n3)c(C)c2)nn1	cytopathic effect	HeLa	EC50	-	0.033–0.659 µg/mL
CCN(CC)c1cc(-c2ccc(OC)cc2O)on1	cytopathic effect	VERO	EC50	ATCC VR28 (TYPE B1)	>381 µM
NC1CCCON2CCc3c([nH]c4ccccc34)[C@H]12	cytopathic effect	HeLa	EC50	TYPE B4	7 µg/mL
CC(=O)c1ccc(CCCOc2c(C)cc(-c3noc(C(F)(F)F)n3)cc2C)nn1	cytopathic effect	HeLa	EC50	-	0.033–0.659 µg/mL
Cc1c(-c2ccccc2)n(C)c2cc(C(C)C)c(OC(C)C)cc2c1=O	cytopathic effect	HeLa S3	EC50	TYPE B4/JVB	>1.6 µg/mL